# Library screen at single concentrations

Mtb glucose medium: 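Phenotypic screen: M. tuberculosis growth, glucose 7H9 medium, 3 days; the read-out is not stated. Compounds at 500 µM. The record gives no direction; compounds that gave an IC50 in retests scored well above the rest, so higher reads as more growth inhibition. Of about 18,000 compounds tested this way, about 1,400 (7.9%) reached 50% or more in at least one test.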
Mtb cholesterol medium: 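Phenotypic screen: M. tuberculosis growth, cholesterol and DPPC medium, 4 days; the read-out is not stated. Concentration: 500 µM. Direction is inferred from retests: higher values go with more growth inhibition. Size under these conditions: about 18,000 compounds, about 900 of them at 50% or above in at least one test.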

Results are given as percent effect. How 0% and 100% were set is not recorded. Most values in the screen are low, and negative values occur. The entries come from a sample that favours strong results. A dash means the value is not listed here; it may have been measured.

Compound,Mtb glucose medium,Mtb cholesterol medium
NC1CCN(CCN2CCOCC2)C1 (stereo not given),-,-25.39
CCNC(=O)CN(CC)CC(=O)Nc1cc(C)no1,-,7.429
O=C(Cn1cncn1)Nc1cccc(F)c1,16.17,-
NCCS(=O)(=O)c1cccs1,13.72,-
O=C(NC1CCN(C2CCOCC2)CC1)c1ccc[nH]1,-,1.504
CC1CCCN1CCN (stereo not given),-14.04,-
CNCC1(CO)CCOCC1,-18.18,-
COc1ccc(OCCN2CCNCC2)cc1,-18.3,-
COc1cc(CNC(=O)CSc2nccn2C)ccn1,29.06,4.007
O=C(CNC(=O)c1ccccc1)NCc1ccncc1,-11.6,-
Cc1noc(C)c1NC(=O)NCCCc1csc(N)n1,7.326,-
CNc1cc(C(=O)N2CCCC(NC(C)=O)C2)ccn1 (stereo not given),9.19,-
CC[C@@H](O)CNC(C)c1ccncc1 (stereo not given in full),0.7063,-
COCCN1CCN(c2ccc(OC)cc2)CC1,10.29,-
COc1cc(Cl)c(CN)cc1OC,43.4,-
Cn1cc2ccc(CN)cc2n1,15.18,-
COC[C@@H]1CN(C(=O)c2cccc(F)c2)C[C@H]1C(N)=O,7.677,-
CN(Cc1ccoc1)C(=O)CN(C)C1CCNCC1,-2.748,-
CN(C)CCNC(=O)c1ccc2c(c1)NC(=O)CO2,7.48,-
CC(C)Cc1ccc(CS(=O)(=O)CCO)cc1,74.51,80.52
COC(=O)CSc1nc2ncc(Br)cc2[nH]1,3.31,-
COc1ccc(OC)c(C(=O)NCc2c[nH]nn2)c1,19.59,-
NS(=O)(=O)N1CCC(Cc2ccccc2)CC1,49.47,46.21
CSCCC(O)C(=O)NCC1(Cn2cccn2)CC1 (stereo not given),-,0.4147
CCCS(=O)(=O)NCC(O)C1CCCC1 (stereo not given),51.04,-
NC1(c2nc(-c3ccccc3)c[nH]2)CCCC1,63.06,67.14
O=C1NC(=O)[C@@H]2CN(Cc3ccccc3)C[C@H]12,3.408,-
c1cnc(N2CCCC2)c(OC2CCNC2)c1 (stereo not given),-23.84,-
COc1cc(C(=O)Nc2nnc[nH]2)cc(Cl)c1OC,-0.4678,-3.916
Cc1nnc(CCNC(=O)C2CC(=O)N(C)C2(C)C)s1 (stereo not given),-,-5.287
CSc1cccc(C#N)n1,8.963,-
CCc1nc(COC2CCNCC2)no1,-,-0.1058
CC(=O)c1c[nH]c(C(=O)NCc2cnn(C)c2C)c1,-8.168,-
COC(=O)c1c[nH]c(SCc2cnc(C)s2)n1,-,-0.5796
NCCC1(O)CNC1,-21.56,-
CCC1CN(Cc2ccno2)CCS1 (stereo not given),-10.63,-
CC(C)(C)OC(=O)N1C[C@@H]2CCN[C@@H]2C1,-19.62,-
CN1CCCCC1CCC(=O)NCc1ccc(O)cc1 (stereo not given),11.39,-
CNS(=O)(=O)c1ccc(C(=O)NC(C)C#N)cc1 (stereo not given),11.57,-
Cc1cc(=O)[nH]c(CCNC(=O)[C@H]2CCC[C@H](O)C2)n1,-3.8,-
CS(=O)(=O)CCN1CCN(c2ccc(O)cc2)CC1,12.44,-
CC1NCCCNC1=O (stereo not given),-2.186,-
CCOc1ccccc1CSc1nnc(O)[nH]1,20.29,-
CN1CCCCC1C(=O)N1CCC(c2ncc[nH]2)CC1 (stereo not given),-,13.2
CNc1snc(C)c1C(=O)Nc1ncccc1O,-10.66,-
O=S(=O)(CCNC1CCCSC1)NCC1CCC1 (stereo not given),-,47.26
CNc1cc(C(N)=O)c2cccc(Cl)c2n1,37.94,-
CC(=O)c1cccc(OCC(=O)NC2CCCC2)c1,76.77,51.92
N#Cc1c(CCCN)nn(-c2ccccc2)c1N,-,8.793
CC(=O)NCCCNCc1ccc(Br)c2cccnc12,53.68,-
COc1ccnc(N)c1,-,-13.33
CCOC(=O)c1ncsc1Cl,15.56,-
CN1CCOC(C(=O)Nc2cc(Cl)cc3c2OCC3)C1 (stereo not given),27.6,-
CNC(=O)CCCNC(=O)Nc1nc2ccccc2s1,6.926,-
CN(Cc1nc2ccccc2[nH]1)C(=O)c1cnc[nH]1,14.4,-
Cc1noc(C)c1CC(=O)NCC1CCOC1 (stereo not given),-,1.972
CSC(C)(C)CNC(=O)NC1CCCS(=O)(=O)C1 (stereo not given),5.307,-
COc1ccc(-c2noc(C(C)n3ccnc3)n2)cn1 (stereo not given),63.18,82.82
CC(C)(C)OC(=O)N1CC(F)(F)CC1CO (stereo not given),-,59.36
Cc1ccc(F)c(C(=O)N[C@@H]2CNC[C@H]2O)c1Cl,-,51.16
COCC(O)CNc1c(C)c(C)nc2ccccc12 (stereo not given),-41.23,-
Cc1ccc(C(C)C)c(OCC(O)CNCCO)c1 (stereo not given),82.09,77.78
CCc1nccn1-c1ccc(CN)cc1,-,11.72
CCCNc1nnc(S(=O)(=O)CCCC#N)s1,8.405,-
CN(C)C(=O)CCN1CCC(CNc2ccccn2)C1 (stereo not given),-10.27,-
NCC(CO)c1ccccc1Cl (stereo not given),15.33,-
CSCC(CCO)Nc1ncccc1C(F)(F)F (stereo not given),60.41,33.48
N#CC(c1cccc(Cl)c1)N1CCNCC1 (stereo not given),-,-4.712
Cc1ccc(NC(=O)CNCCN2CCOCC2)cc1,10.68,-
CC(NCC1(C)OCCO1)c1cccc(F)c1 (stereo not given),0.4142,-
COCCNC(=O)c1csc(-c2ccco2)n1,41.01,7.675

Some entries from above, unchanged:

* CCC1CN(Cc2ccno2)CCS1 (stereo not given) | Mtb glucose medium: -10.63%
* COc1ccnc(N)c1 | Mtb cholesterol medium: -13.33%
* CC(C)(C)OC(=O)N1C[C@@H]2CCN[C@@H]2C1 | Mtb glucose medium: -19.62%
* CC(C)(C)OC(=O)N1CC(F)(F)CC1CO (stereo not given) | Mtb cholesterol medium: 59.36%
* Cc1cc(=O)[nH]c(CCNC(=O)[C@H]2CCC[C@H](O)C2)n1 | Mtb glucose medium: -3.8%
* O=C(Cn1cncn1)Nc1cccc(F)c1 | Mtb glucose medium: 16.17%
* CCCNc1nnc(S(=O)(=O)CCCC#N)s1 | Mtb glucose medium: 8.405%
* O=C(NC1CCN(C2CCOCC2)CC1)c1ccc[nH]1 | Mtb cholesterol medium: 1.504%

Measurements from “University of Dundee, Small-Polar-MMV Screening Library” (2021), ChEMBL document CHEMBL3988442.